Test system: F22-4 antibody
Experiment: ITC microcalorimetry
Parameters: species or system murine
Conditions: ITC binding stoichiometry; PBS buffer at 25°C
From the text: ITC experiments with F22-4 antibody and several chemically synthesized oligosaccharidic fragments of O-Ag 2a lead to two major results.

SMILES	n
COC1OC(C)C(OC2OC(CO)C(O)C(O)C2O)C(OC2OC(C)C(O)C(O)C2OC2OC(C)C(O)C(O)C2OC2OC(CO)C(O)C(OC3OC(C)C(OC4OC(CO)C(O)C(O)C4O)C(OC4OC(C)C(O)C(O)C4O)C3O)C2NC(C)=O)C1O (stereo not shown) [B(E)CDAB(E)C]	2,05±0,20
CO[C@@H]1O[C@@H](C)[C@H](O)[C@@H](O)[C@H]1O[C@@H]1O[C@H](CO)[C@@H](O)[C@H](O[C@@H]2O[C@@H](C)[C@H](O[C@H]3O[C@H](CO)[C@@H](O)[C@H](O)[C@H]3O)[C@@H](O[C@@H]3O[C@@H](C)[C@H](O)[C@@H](O)[C@H]3O)[C@H]2O)[C@H]1NC(C)=O [B(E)CDA]	1,77±0,01
COC1OC(C)C(OC2OC(CO)C(O)C(O)C2O)C(OC2OC(C)C(O)C(O)C2OC2OC(C)C(O)C(O)C2OC2OC(CO)C(O)C(OC3OC(C)C(OC4OC(CO)C(O)C(O)C4O)C(OC4OC(C)C(O)C(O)C4OC4OC(C)C(O)C(O)C4OC4OC(CO)C(O)C(O)C4NC(C)=O)C3O)C2NC(C)=O)C1O (stereo not shown) [DAB(E)CDAB(E)C]	1,80±0,03
CO[C@@H]1O[C@@H](C)[C@H](O)[C@@H](O)[C@H]1O[C@@H]1O[C@@H](C)[C@H](O)[C@@H](O)[C@H]1O[C@@H]1O[C@H](CO)[C@@H](O)[C@H](O[C@@H]2O[C@@H](C)[C@H](O[C@H]3O[C@H](CO)[C@@H](O)[C@H](O)[C@H]3O)[C@@H](O)[C@H]2O)[C@H]1NC(C)=O [ECDAB]	1,72±0,01
COC1OC(C)C(O)C(O)C1OC1OC(CO)C(O)C(OC2OC(C)C(OC3OC(CO)C(O)C(O)C3O)C(O)C2O)C1NC(C)=O (stereo not shown) [ECDA]	1,72±0,01
CC(=O)N[C@@H]1[C@@H](O[C@@H]2O[C@@H](C)[C@H](O[C@H]3O[C@H](CO)[C@@H](O)[C@H](O)[C@H]3O)[C@@H](O[C@@H]3O[C@@H](C)[C@H](O)[C@@H](O)[C@H]3O[C@@H]3O[C@@H](C)[C@H](O)[C@@H](O)[C@H]3O[C@@H]3O[C@H](CO)[C@@H](O)[C@H](O[C@@H]4O[C@@H](C)[C@H](O[C@H]5O[C@H](CO)[C@@H](O)[C@H](O)[C@H]5O)[C@@H](O[C@@H]5O[C@@H](C)[C@H](O)[C@@H](O)[C@H]5O[C@@H]5O[C@@H](C)[C@H](O)[C@@H](O)[C@H]5O)[C@H]4O)[C@H]3NC(C)=O)[C@H]2O)[C@H](O)[C@@H](CO)O[C@H]1O [[AB(E)CD]2]	1,93±0,04
CC(=O)N[C@@H]1[C@@H](O[C@@H]2O[C@@H](C)[C@H](O[C@H]3O[C@H](CO)[C@@H](O)[C@H](O)[C@H]3O)[C@@H](O[C@@H]3O[C@@H](C)[C@H](O)[C@@H](O)[C@H]3O[C@@H]3O[C@@H](C)[C@H](O)[C@@H](O)[C@H]3O[C@@H]3O[C@H](CO)[C@@H](O)[C@H](O[C@@H]4O[C@@H](C)[C@H](O[C@H]5O[C@H](CO)[C@@H](O)[C@H](O)[C@H]5O)[C@@H](O[C@@H]5O[C@@H](C)[C@H](O)[C@@H](O)[C@H]5O[C@@H]5O[C@@H](C)[C@H](O)[C@@H](O)[C@H]5O[C@@H]5O[C@H](CO)[C@@H](O)[C@H](O[C@@H]6O[C@@H](C)[C@H](O[C@H]7O[C@H](CO)[C@@H](O)[C@H](O)[C@H]7O)[C@@H](O[C@@H]7O[C@@H](C)[C@H](O)[C@@H](O)[C@H]7O[C@@H]7O[C@@H](C)[C@H](O)[C@@H](O)[C@H]7O)[C@H]6O)[C@H]5NC(C)=O)[C@H]4O)[C@H]3NC(C)=O)[C@H]2O)[C@H](O)[C@@H](CO)O[C@H]1O [[AB(E)CD]3]	2,03±0,02

— patent EP2123668A1, “Immunogenic polypeptides that mimic the surface polysaccharide O-antigen from serotype 2A shigella flexneri, method for obtaining the same, and their use in vaccine and diagnostic compositions” (INSTITUT PASTEUR, priority 2008, dated 2009)
